A mixed list of measured activities; the numbers were collected in NIAID ChemDB.

Shared fields: whole-cell or culture tests; species: Hepatitis C virus; cell line: Huh7; endpoint: EC50

a–b is a range or a potency band.

compound | strain or isolate | changes | method | result
O=C(Nc1ccc(C2SC(=Nc3cccc(F)c3)N(CC3CCS(=O)(=O)C3)C2=O)cc1)[C@H]1CCCN1C(=O)OCc1ccccc1 |  |  | replicon | 0.1–1 µM
COc1ccc(S(=O)(=O)Oc2ccccc2/C=N/NC(=O)Cc2cccc(OC)c2)cc1 |  |  | replicon | <5 µM
COc1c(-c2ccc3cc(NS(C)(=O)=O)ccc3c2)cc(-n2ccc(=O)[nH]c2=O)cc1C(C)(C)C | genotype 1b | V499A | luciferase | 0.0025 µM
CC(C)(C)OC(=O)N1/C=C\CCn2c(c(C3CCCCC3)c3ccc(C(=O)O)cc32)-c2ccccc21 |  |  | replicon | 1–10 µM
CNC(=O)c1c(-c2ccc(F)cc2)oc2cc(C3CNC(=O)C3C(=O)NC)c(OC)cc12 |  |  | replicon | <10 µM
CCOc1nc(N)nc2ccc(-c3cccc(NS(=O)(=O)C4CC4)c3)nc12 |  |  | replicon | <0.3 µM
Cc1cnc(N2C(=O)C(c3ccc(NC(=O)[C@@H]4CCCN4C(=O)Cc4ccccc4)cc3)SC2=Nc2ccc(N3CCOCC3)cc2)cn1 |  |  | replicon | >5 µM
COc1cccc(CC(=O)N/N=C/c2ncccc2OS(=O)(=O)c2ccc(C)cc2)c1 |  |  | replicon | <5 µM
COC(=O)c1ccc2c(C3CCCCC3)c3n(c2c1)CC(C(=O)N1CCOCC1)Cc1ccccc1-3 |  |  | replicon | 1–10 µM
CNC(=O)c1c(-c2ccc(F)cc2)oc2cc(N3CCCC3)c(OC)cc12 |  |  | replicon | <1 µM
COc1cccc(OS(=O)(=O)c2ccc(C(F)(F)F)cc2)c1/C=N/NC(=O)Cc1cccc(Cl)c1 |  |  | replicon | <5 µM
CC1CN(C(=O)C2=Cc3ccccc3C3=C(C4CCCCC4)c4cc(C(=O)NS(=O)(=O)N(C)C)ccc4C3C2)CC(C)N1 |  |  | replicon | 0.01–1 µM
CCOc1nc(N)nc2ccc(-c3ccc(C(=O)NCCN(C)C)cc3)nc12 |  |  | replicon | >1 µM
COC(=O)c1ccc2c(C3CCCCC3)c3n(c2c1)CC(C(=O)O)=Cc1ccc(Cl)cc1-3 |  |  | replicon | 1–10 µM
C[C@@H](NC(=O)OCc1ccccc1)C(=O)Nc1ccc(C2SC(=Nc3cccc(OC(F)(F)F)c3)N(Cc3ccco3)C2=O)cc1 |  |  | replicon | 0.1–1 µM
O=C(O)c1ccc2c(C3CCCCC3)c3n(c2c1)CC(C(=O)N1CCN(c2ccncc2)CC1)=Cc1ccccc1-3 |  |  | replicon | 0.01–1 µM
CCOc1nc(N)nc2ccc(-c3ccc(NC(=O)[C@H](C)N)c(F)c3)nc12 |  |  | replicon | <0.3 µM
CNC(=O)c1c(-c2ccc(F)cc2)oc2cc(N3CCOCC3)c(OCc3ccc(C(=O)O)cc3)cc12 |  |  | replicon | <10 µM
Cn1c(-c2ccccc2)c(C2CCCCC2)c2ccc(C(=O)NC3(c4nnnn4CC(=O)O)CCCC3)cc21 |  |  | replicon | >10 µM
CNC(=O)c1c(-c2ccc(F)cc2)oc2cc(N3CCOCC3)c(OCCCl)cc12 |  |  | replicon | >30 µM
O=C(Cc1ccccc1)N/N=C/c1ccccc1OS(=O)(=O)c1ccccc1F |  |  | replicon | >50 µM
CNC(=O)c1c(-c2ccccc2)oc2ccc(C(C)C)cc12 |  |  | replicon | <10 µM
COc1cccc(CC(=O)N/N=C/c2ccccc2OS(=O)(=O)c2ccc(-c3cnco3)cc2)c1 |  |  | replicon | <5 µM
CNC(=O)c1c(-c2ccc(F)cc2)oc2c(C)cc(OC(C)C)cc12 |  |  | replicon | <30 µM
CCC(=O)Nc1ccc(-c2ccc3nc(N)nc(N4CCS(=O)(=O)CC4)c3n2)cc1 |  |  | replicon | <0.3 µM
CCN(C(=O)COC)c1cc2oc(-c3ccc(F)cc3)c(C(=O)NC)c2c(Cl)c1OC |  |  | replicon | <10 µM
CC(C)(C)N=C1SC(c2ccc(NC(=O)[C@H]3CCC(=O)N3C(=O)OCc3ccccc3)cc2)C(=O)N1Cc1ccccn1 |  |  | replicon | 0.1–1 µM
CNC(=O)c1c(-c2ccc(F)cc2)oc2cc(NC(C)C)c(OC(C)C)cc12 |  |  | replicon | <1 µM
COC(=O)c1ccc2c(C3CCCCC3)c3n(c2c1)CC(C(=O)N1CCN(c2ccncc2)CC1)Cc1ccccc1-3 |  |  | replicon | 0.01–1 µM
CNC(=O)c1c(-c2ccc(F)cc2)oc2cc(N3CCC(O)CC3)c(OC(C)C)cc12 |  |  | replicon | <10 µM
CC(C)C(=O)Nc1ccc(-c2ccc3nc(N)nc(O[C@H]4CCOC4)c3n2)cc1 |  |  | replicon | <0.3 µM

A second listing of 3 rows from above:

compound,strain or isolate,changes,method,result
COC(=O)c1ccc2c(C3CCCCC3)c3n(c2c1)CC(C(=O)O)=Cc1ccc(Cl)cc1-3,,,replicon,1–10 µM
C[C@@H](NC(=O)OCc1ccccc1)C(=O)Nc1ccc(C2SC(=Nc3cccc(OC(F)(F)F)c3)N(Cc3ccco3)C2=O)cc1,,,replicon,0.1–1 µM
CNC(=O)c1c(-c2ccc(F)cc2)oc2cc(N3CCOCC3)c(OCc3ccc(C(=O)O)cc3)cc12,,,replicon,<10 µM

ECn: concentration that inhibits the pathogen or its effect by n%. An empty or dashed field is not shown. Rows are shuffled and stem from different studies.